Source: article PMC5080381
The exact form of at least one protein or probe is not confirmed.

Amino acid sequences for entries named in this document (tags omitted). A change or cut given only in a name is not applied to a line headed by its entry.
UniProt A9JX08: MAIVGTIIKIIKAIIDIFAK
UniProt A9JX05: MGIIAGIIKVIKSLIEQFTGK
UniProt A9JX06: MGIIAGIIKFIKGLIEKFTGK

Tests used:
Test in all cases: EMSA
Conditions in all cases: EMSA: LightShift kit, 20 fM biotinylated DNA, 146 nM GST-PmtR, 20 ul, 20 min, room temperature
[1] = target: PSMα4 (Staphylococcus aureus) (UniProt A9JX08)
[2] = target: PSMα1 (Staphylococcus aureus) (UniProt A9JX05)
[3] = target: PSMα2 (Staphylococcus aureus) (UniProt A9JX06)

Measured: binding result

AATCACAATCTACTACCTTACTGGAATTTAATTTATCTTATAATTTCCCTTGCATATAAGTTACATTACTTCAGCCTCCTAATTGTACCCTTAGCACGAAGACAAATTTGTTCTTACCTATATTTCATCATTGGTAAGGGGATTGCATGTCCCACGTAAAACATTGTTAAACTCTTAGGTTTTTGAACGATAAAAACTTT (double strand) [random DNA fragment]
binds: all assays above
